Compound potency records, mixed from different reports. Data source: NIAID ChemDB in PubChem.

Common to all: tests in culture; agent: Aspergillus flavus; read-out: zone

Zones are inhibition diameters on agar.

SMILES | strain or isolate | method | tested at | value
Cc1ccc2nc(Cl)c(CN3CCOCC3)cc2c1 | MTCC 277 | agar diffusion | 200 µg/mL | 5.52 mm
CCCCc1nc(Cl)c(-c2cc(-c3ccc(OC)cc3)nc3c2C(=O)c2ccccc2-3)n1Cc1ccccc1 | MTCC 8188 | agar diffusion | 10 µg/disc | 6 mm
Cc1ccc2nc(Cl)c(CNc3ccc(Br)cc3)cc2c1 | MTCC 277 | agar diffusion | 200 µg/mL | 11.06 mm
COc1cc(C2c3c(nc(N)c(C#N)c3N)Oc3[nH]c(=S)[nH]c(=O)c32)cc(OC)c1OC |  | agar diffusion / agar | 10000 µg/mL | 0 mm
Oc1cccc2cccnc12 |  | agar | 25 µg/mL | 19 mm
CCCCc1nc(Cl)c(-c2cc(-c3ccc4sc5ccccc5c4c3)nc3c2C(=O)c2ccccc2-3)n1Cc1ccccc1 | MTCC 8188 | agar diffusion | 10 µg/disc | 10 mm
COc1cc(C2c3c(nc[nH]c3=O)Oc3[nH]c(=S)[nH]c(=O)c32)cc(OC)c1OC |  | agar diffusion / agar | 10000 µg/mL | 0 mm
Cc1ccc2nc(Cl)c(CNc3ccccc3Cl)cc2c1 | MTCC 277 | agar diffusion | 200 µg/mL | 7.93 mm
COc1cc(C2C(C#N)=C(NS(=O)(=O)c3ccccc3)Oc3[nH]c(=S)[nH]c(=O)c32)cc(OC)c1OC |  | agar diffusion / agar | 10000 µg/mL | 0 mm
CCCCc1nc(Cl)c(-c2cc(-c3ccc(Br)s3)nc3c2C(=O)c2ccccc2-3)n1Cc1ccccc1 | MTCC 8188 | agar diffusion | 10 µg/disc | 7 mm
Nc1ccc(S(N)(=O)=O)cc1 |  | agar diffusion / agar | 25 µg/mL | 22 mm
CCCCc1nc(Cl)c(-c2cc(-c3ccc4ccccc4c3)nc3c2C(=O)c2ccccc2-3)n1Cc1ccccc1 | MTCC 8188 | agar diffusion | 10 µg/disc | 6 mm
COC1=CC(=O)C[C@@H](C)[C@]12Oc1c(Cl)c(OC)cc(OC)c1C2=O |  | agar diffusion | 250 µg/disc | 34 mm
Cc1ccc(NCc2cc3cc(C)ccc3nc2Cl)cc1 | MTCC 277 | agar diffusion | 200 µg/mL | 8.33 mm
CCCCc1nc(Cl)c(-c2cc(-c3ccc4oc5ccccc5c4c3)nc3c2C(=O)c2ccccc2-3)n1Cc1ccccc1 | MTCC 8188 | agar diffusion | 10 µg/disc | 7 mm

The first 2 rows once more:

SMILES,strain or isolate,method,tested at,value
Cc1ccc2nc(Cl)c(CN3CCOCC3)cc2c1,MTCC 277,agar diffusion,200 µg/mL,5.52 mm
CCCCc1nc(Cl)c(-c2cc(-c3ccc(OC)cc3)nc3c2C(=O)c2ccccc2-3)n1Cc1ccccc1,MTCC 8188,agar diffusion,10 µg/disc,6 mm

An empty or dashed field is not shown. Neighbouring rows are from separate reports.